Results of unrelated studies side by side (data: NIAID ChemDB).

All rows: cytotoxicity tests; measure: CC50

CCn is the concentration with n% toxicity to the cells. Neighbouring rows are from separate reports.

CC(C)N(Cc1cccc(OCCCCCC(=O)OC(=O)O)c1)C(=O)c1ccc(-c2ccco2)cc1 ; cells: RAJI ; result: >20 µM
C[C@@H]1CN(C(=O)C(=O)c2c[nH]c3c(-n4nccn4)ccnc23)CCN1C(=O)c1ccccc1 ; cells: HeLa ; read by: trypan blue ; result: >100 µM
Nc1c(C(=O)c2ccccc2)[nH]c2c1C1=C(CCC/C1=C\c1ccncc1)C(c1ccncc1)S2 ; cells: MGC-803 ; read by: MTT ; result: >50 µM
CCCOc1ccc2c(c1)c(=O)c(C)c(-c1ccccc1)n2CC ; cells: HeLa S3 ; read by: MTT ; result: >10 µg/mL
CCOC(=O)c1c(O)c2cc(-c3cc(C)cc(C)c3)cnc2n(O)c1=O ; cells: HeLa ; result: <100 µM
Cc1cc2c(O[C@H]3O[C@H](CO)[C@@H](O)[C@H]3O)ccc(O)c2c(=O)o1 ; cells: SMMC-7721 ; read by: MTT ; result: >40 µg/mL
CCOC(=O)C1=C(CN2CC(F)(F)[C@@H]3[C@H]2CON3CC[C@@](C)(O)C(=O)O)NC(c2nccs2)=N[C@H]1c1cccc(F)c1C ; cells: HepG2.2.15 ; read by: WST / absorbance ; result: >100 µM
Nc1c2c(nc(=O)n1-c1ccccc1)SC(c1ccncc1)C1=C2/C(=C/c2ccncc2)CCC1 ; cells: KB ; read by: MTT ; result: 13.4 µM
CCOC(=O)[C@@]1(C)CC[C@]2(C)CC[C@]3(C)C(=CC(=O)[C@@H]4[C@@]5(C)CC/C(=N\OCc6cc(C)cc(C)c6)C(C)(C)[C@@H]5CC[C@]43C)[C@@H]2C1 ; cells: K562 ; read by: MTT ; result: 66.16 µM
CC(C)C[C@@H]1NC(=O)[C@H](Cc2c[nH]c3ccccc23)NC(=O)C(CCCN=C(N)N)NC(=O)[C@H](CC(N)=O)NC(=O)[C@H](C(C)C)NC(=O)[C@@H](CC(C)C)NC1=O ; cells: Lung carcinoma cells ; read by: MTT ; result: >30 µM
COc1cnc(-n2ccc(C)n2)c2[nH]cc(C(=O)C(=O)N3CCN(C(=O)c4ccccc4)[C@H](C)C3)c12 ; cells: HeLa ; read by: trypan blue ; result: >100 µM
O=C(NCCc1cccc(-n2ccnc2)n1)Nc1ccc(C(F)(F)F)c(F)c1 ; cells: PBMC ; result: 50 µM
CCOC(=O)CCCCCOc1cccc(C=O)c1 ; cells: HEK 293 ; result: >20 µM
CCOC(=O)[C@@]1(C)CC[C@]2(C)CC[C@]3(C)C(=CC(=O)[C@@H]4[C@@]5(C)CC/C(=N\OCc6ccc(Cl)c(Cl)c6)C(C)(C)[C@@H]5CC[C@]43C)[C@@H]2C1 ; cells: CT26 ; read by: MTT ; result: 54.85 µM
CC(C)c1ccc2c(c1)c(=O)cc(-c1cccs1)n2C ; cells: HELA-OHIO ; read by: MTT ; result: 11 µg/mL
Nc1c2c(nc(=S)n1-c1ccccc1)SC(c1ccncc1)C1=C2/C(=C/c2ccncc2)CCC1 ; cells: CNE-2 ; read by: MTT ; result: 14.2 µM
COC(=O)N[C@@H](Cc1ccccc1Cl)C(=O)N[C@H](CCC[C@@H](CO)N(CCC(C)C)S(=O)(=O)c1ccc(CO)cc1)C(C)C ; cells: T lymphoid cells ; read by: microscopy ; result: >10 µM
O=c1cc(N2CCCC(F)C2)c2cccnc2n1O ; cells: HeLa ; result: <100 µM
COC(=O)N[C@@H](Cc1ccccc1Cl)C(=O)N[C@H](CCC[C@@H](CO)N(CCC(C)C)S(=O)(=O)c1ccc(CO)cc1)C1CC1 ; cells: T lymphoid cells ; read by: microscopy ; result: >10 µM
O=c1c(Br)c(O)c2cc(-c3ccncc3)cnc2n1O ; cells: HeLa ; result: <100 µM
CCOC(=O)[C@@]1(C)CC[C@]2(C)CC[C@]3(C)C(=CC(=O)[C@@H]4[C@@]5(C)CC/C(=N\OCc6ccc(Br)cc6)C(C)(C)[C@@H]5CC[C@]43C)[C@@H]2C1 ; cells: K562 ; read by: MTT ; result: 25.01 µM
Cc1cc(NC(=O)NCCc2ccc3c(n2)NCCC3)on1 ; cells: PBMC ; result: 50 µM
S=C(NCCCc1ccccc1)Nc1cccc(OCCCCCc2ccccc2)c1 ; cells: Ava5-EG(delta4AB)SEAP ; read by: MTS ; result: >1 µM
CCO/C=N\C1=C(C#N)C2=C(CCC/C2=C\c2ccncc2)C(c2ccncc2)S1 ; cells: CNE-2 ; read by: MTT ; result: 49.4 µM
S=C(NCCCCc1ccccc1)Nc1cccc(OCCCCCc2ccccc2)c1 ; cells: Ava5-EG(delta4AB)SEAP ; read by: MTS ; result: >1 µM
Cc1c(-c2ccccc2)n(-c2ccccc2F)c2ccc(C(C)C)cc2c1=O ; cells: HELA-OHIO ; read by: MTT ; result: >1 µg/mL
COCc1ncn(-c2ncc(OC)c3c(C(=O)C(=O)N4CCN(C(=O)c5ccccc5)[C@H](C)C4)c[nH]c23)n1 ; cells: HeLa ; read by: trypan blue ; result: >100 µM
CC(C)C[C@@H]1NC(=O)[C@H](Cc2c[nH]c3ccccc23)NC(=O)[C@@H](CCCCN)NC(=O)[C@H](CC(N)=O)NC(=O)[C@H](C(C)C)NC(=O)[C@@H](CC(C)C)N(C)C1=O ; cells: Colorectal carcinoma ; read by: MTT ; result: >30 µM
CCOC(=O)[C@@]1(C)CC[C@]2(C)CC[C@]3(C)C(=CC(=O)[C@@H]4[C@@]5(C)CC/C(=N\OCc6ccccc6Br)C(C)(C)[C@@H]5CC[C@]43C)[C@@H]2C1 ; cells: CT26 ; read by: MTT ; result: 45.14 µM
CCOC(=O)C1=C(CN2CC(F)(F)[C@@H]3[C@H]2CON3C[C@H](O)C(C)(C)C(=O)O)NC(c2nccs2)=N[C@H]1c1cccc(F)c1F ; cells: HepG2.2.15 ; read by: WST / absorbance ; result: >100 µM
O=C(NCCc1ccc2c(n1)NCCC2)n1cnc2ccccc21 ; cells: PBMC ; result: 50 µM
CC(C)C[C@@H]1NC(=O)[C@H](Cc2c[nH]c3ccccc23)NC(=O)[C@@H](C(C)(C)C)NC(=O)[C@H](CCCCN)NC(=O)[C@H](C(C)C)NC(=O)[C@@H](CC(C)C)NC1=O ; cells: Lung carcinoma cells ; read by: MTT ; result: >30 µM
CCOC(=O)C1=C(CN2CC(F)(F)[C@@H]3[C@H]2CON3C[C@H](O)C(C)(C)C(=O)O)NC(c2nccs2)=N[C@@H]1c1ccc(Cl)c(F)c1 ; cells: HepG2.2.15 ; read by: WST / absorbance ; result: >50 µM
O=c1cc(-c2ccc(NCCN3CCOCC3)nc2)c2cccnc2n1O ; cells: HeLa ; result: <100 µM
CCOC(=O)CCCCCOc1cccc(CN(C(=O)c2ccc(-c3cccc(C(F)(F)F)c3)cc2)C(C)C)c1 ; cells: HEK 293 ; result: >20 µM
C[C@H]1CN(C(=O)C(=O)c2c[nH]c3c(-c4nccs4)ccnc23)CCN1C(=O)c1ccccc1 ; cells: HeLa ; read by: trypan blue ; result: >100 µM
COC(=O)N[C@H](C(=O)N[C@H](CCC[C@@H](CO)N(C(C)C)S(=O)(=O)c1ccc(CO)cc1)C(F)(F)F)C(c1ccccc1)c1ccccc1 ; cells: T lymphoid cells ; read by: microscopy ; result: >10 µM
O=C(NCCc1ccc2c(n1)NCCC2)Nc1ccc(Cl)cc1F ; cells: PBMC ; result: 7 µM
CCCCNC(=S)Nc1ccc2c(c1)Cc1cc(Br)ccc1-2 ; cells: Ava5-EG(delta4AB)SEAP ; read by: MTS ; result: >1 µM
CCC[C@@H](CCC[C@@H](CO)N(CCCF)S(=O)(=O)c1ccc(N)cc1)NC(=O)[C@@H](NC(=O)OC)C(c1ccccc1)c1ccccc1 ; cells: T lymphoid cells ; read by: microscopy ; result: >10 µM
COc1c(OCC(C)C)ccc2c1c(=O)c(C)c(-c1ccccc1)n2C ; cells: HeLa S3 ; read by: MTT ; result: >10 µg/mL
COC(=O)C1=C(CN2CC(F)(F)[C@@H]3[C@H]2CON3C[C@H](OC)C(C)(C)C(=O)O)NC(c2nccs2)=N[C@H]1c1ccc(F)c(F)c1C ; cells: HepG2.2.15 ; read by: WST / absorbance ; result: >50 µM
NC(=S)Nc1cccc(OCCCCCOc2ccc(-c3ccoc3)cc2)c1 ; cells: Ava5-EG(delta4AB)SEAP ; read by: MTS ; result: >1 µM
O=C(c1c[nH]c2ccccc12)[C@H](O)CO ; cells: SMMC-7721 ; read by: MTT ; result: >40 µg/mL
O=C(NCCc1ccc2c(n1)NCCC2)Nc1ccc2c(cnn2Cc2ccccc2)c1 ; cells: PBMC ; result: 9.6 µM
CC[C@@H](CCC[C@@H](CO)N(CC(C)C)S(=O)(=O)c1ccc(CO)cc1)NC(=O)[C@@H](NC(=O)OC)C(c1ccc(F)cc1)c1ccc(F)cc1 ; cells: T lymphoid cells ; read by: microscopy ; result: >10 µM
CNC(=O)c1ncn(-c2ncc(OC)c3c(C(=O)C(=O)N4CCN(C(=O)c5ccccc5)CC4)c[nH]c23)n1 ; cells: HeLa ; read by: trypan blue ; result: >100 µM
CCC(CCC[C@@H](CO)N(CCC(C)C)S(=O)(=O)c1ccc(N)cc1)NC(=O)[C@H](C(c1ccccc1)c1ccccc1)N(C)C(=O)OC ; cells: T lymphoid cells ; read by: microscopy ; result: >10 µM
NC(=S)Nc1cccc(OCCCCCOc2ccc3ccccc3c2)c1 ; cells: Ava5-EG(delta4AB)SEAP ; read by: MTS ; result: >1 µM
COc1cc2c(=O)c(C)c(-c3ccccc3)n(C)c2cc1C(C)C ; cells: HELA-OHIO ; read by: MTT ; result: >10 µg/mL
NC(=S)Nc1cccc(OCCCOc2cccc3ccccc23)c1 ; cells: Ava5-EG(delta4AB)SEAP ; read by: MTS ; result: >1 µM
CCCc1ccc2c(c1)c(=O)c(C)c(-c1ccccc1)n2CC ; cells: HeLa S3 ; read by: MTT ; result: 6.5 µg/mL
CC(C)C[C@@H]1NC(=O)[C@H](Cc2c[nH]c3ccccc23)NC(=O)[C@@H](C)NC(=O)[C@H](CCCCN)NC(=O)[C@H](C(C)C)NC(=O)[C@@H](CC(C)C)NC1=O ; cells: Colorectal carcinoma ; read by: MTT ; result: >30 µM
CCn1c(-c2cccc(C)c2)c(C)c(=O)c2c(Cl)c(OCC(C)C)ccc21 ; cells: HeLa S3 ; read by: MTT ; result: >2.5 µg/mL
COc1cnc(-c2n[nH]c(C)n2)c2[nH]cc(C(=O)C(=O)N3CCN(C(=O)c4ccccc4)[C@H](C)C3)c12 ; cells: HeLa ; read by: trypan blue ; result: >100 µM
CCn1c(-c2ccco2)cc(=O)c2cc(C(C)C)ccc21 ; cells: HeLa S3 ; read by: MTT ; result: >20 µg/mL
CC(C)N(Cc1cccc(OCCCCCC(=O)OC(=O)O)c1)C(=O)c1ccc(-c2cccc(Cl)c2)cc1 ; cells: BJ ; result: >20 µM

Repeating the final 8 entries:

{"SMILES": "COc1cc2c(=O)c(C)c(-c3ccccc3)n(C)c2cc1C(C)C", "cells": "HELA-OHIO", "read by": "MTT", "result": ">10 µg/mL"}
{"SMILES": "NC(=S)Nc1cccc(OCCCOc2cccc3ccccc23)c1", "cells": "Ava5-EG(delta4AB)SEAP", "read by": "MTS", "result": ">1 µM"}
{"SMILES": "CCCc1ccc2c(c1)c(=O)c(C)c(-c1ccccc1)n2CC", "cells": "HeLa S3", "read by": "MTT", "result": "6.5 µg/mL"}
{"SMILES": "CC(C)C[C@@H]1NC(=O)[C@H](Cc2c[nH]c3ccccc23)NC(=O)[C@@H](C)NC(=O)[C@H](CCCCN)NC(=O)[C@H](C(C)C)NC(=O)[C@@H](CC(C)C)NC1=O", "cells": "Colorectal carcinoma", "read by": "MTT", "result": ">30 µM"}
{"SMILES": "CCn1c(-c2cccc(C)c2)c(C)c(=O)c2c(Cl)c(OCC(C)C)ccc21", "cells": "HeLa S3", "read by": "MTT", "result": ">2.5 µg/mL"}
{"SMILES": "COc1cnc(-c2n[nH]c(C)n2)c2[nH]cc(C(=O)C(=O)N3CCN(C(=O)c4ccccc4)[C@H](C)C3)c12", "cells": "HeLa", "read by": "trypan blue", "result": ">100 µM"}
{"SMILES": "CCn1c(-c2ccco2)cc(=O)c2cc(C(C)C)ccc21", "cells": "HeLa S3", "read by": "MTT", "result": ">20 µg/mL"}
{"SMILES": "CC(C)N(Cc1cccc(OCCCCCC(=O)OC(=O)O)c1)C(=O)c1ccc(-c2cccc(Cl)c2)cc1", "cells": "BJ", "result": ">20 µM"}